Compound potency records, mixed from different reports. Data source: NIAID ChemDB in PubChem.

Shared fields: growth or infection tests; organism: Human cytomegalovirus; cells: MRC-5; endpoint: EC50

Lines come from different laboratories, so protocols vary. Blank or dashed fields: not listed here. ECn is the concentration giving n% inhibition of infection, replication or growth.

| compound | strain or isolate | method | setting | value |
|---|---|---|---|---|
| O=C1C=CN(Cc2ccc(Cl)cc2)S(=O)(=O)N1Cc1ccc(Cl)cc1 | AD169 | plaque count | - | 12.5 µM |
| CN(Cc1cnc2nc(N)nc(N)c2n1)c1ccc(C(=O)N[C@@H](CCC(=O)O)C(=O)O)cc1 | TOWNE | - | 4 h | >0.2 µM |
| CC#Cc1cn([C@@H]2O[C@H](COP(=O)(O)OCCCCCCCCCCCC)[C@@H](O)[C@@H]2O)c(=O)[nH]c1=O | AD169 | plaque count | - | >10 µM |
| CCCc1cn([C@H]2C[C@H](O)[C@@H](CO)O2)c(=S)[nH]c1=O | 93-1R | plaque count | - | >277.6 µM |
| CCOP(=O)(O)CCCOCn1cnc2c(=O)[nH]c(N)nc21 | AD169 | plaque count | - | 139 µM |
| Cc1cn([C@@H]2O[C@H](CO)[C@@H](O)[C@@H]2O)c(=S)nc1N | T-137 | plaque count | - | >264.9 µM |
| CCN1C(=O)c2ccccc2N(Cc2ccc(Cl)cc2)S1(=O)=O | AD169 | plaque count | - | 2.8 µM |
| COc1ccccc1CNC(=O)C1=Cc2ccncc2CC1 | AD169 | plaque count | - | 13.8 µM |
| O=C1c2sccc2N(Cc2ccc(Cl)c(Cl)c2)S(=O)(=O)N1Cc1ccccc1 | AD169 | plaque count | - | 4 µM |
| Nc1ncnc2c1ncn2[C@@H]1O[C@@H](CO)[C@H](O)[C@H]1O | AD169 | cytopathic effect | - | >1000 µM |
| Nc1nc2c(ncn2COC(CO)CO)c(=O)[nH]1 | TOWNE | ELISA | - | 20 µM |
| Nc1nc(=S)n([C@@H]2O[C@H](CO)[C@@H](O)[C@@H]2O)cc1F | AD169 | plaque count | - | >361 µM |
| O=c1ccn([C@H]2C[C@@H](O)[C@H](CO)O2)c(=O)[nH]1 | AD169 | cytopathic effect | - | >100 µM |
| Clc1cccn2cc(-c3ccccc3)cc12 | AD169 | plaque count | - | >100 µM |
| Nc1nc2c(ncn2OCC2COP(=O)(O)CO2)c(=O)[nH]1 | AD169 | plaque count | - | 14 µM |
| O=C1c2ccccc2N(Cc2ccc(Cl)cc2)S(=O)(=O)N1CC1CCCCC1 | AD169 | plaque count | - | 5.9 µM |
| CC#Cc1cn([C@@H]2O[C@H](COP(=O)(Oc3ccccc3)Oc3ccc([N+](=O)[O-])cc3)[C@@H](O)[C@@H]2O)c(=O)[nH]c1=O | AD169 | plaque count | - | >100 µM |
| Nc1nc2c(ncn2COC(CO)CCP(=O)(O)O)c(=O)[nH]1 | AD169 | plaque count | - | 7.8 µM |
| NC1=NCCN1CC(=O)O | C8805-37 (ganciclovir-resistant) | plaque count | - | 8500 µM |
| Nc1nc2c(ncn2COC(CO)CO)c(=O)[nH]1 | AD169 | plaque count | - | 3.31 µM |
| c1ccc(-c2cc3c4ccccc4ccn3c2)cc1 | AD169 | plaque count | - | >100 µM |
| CC#Cc1cn([C@@H]2O[C@H](COP(=O)(O)OCC(Cl)(Cl)Cl)[C@@H](O)[C@@H]2O)c(=O)[nH]c1=O | AD169 | plaque count | - | >100 µM |
| Nc1nc2c(ncn2CO[C@H](CO)CCP(=O)(O)O)c(=O)[nH]1 | AD169 | plaque count | - | 66 µM |
| CC(C)Oc1ccccc1CNC(=O)c1ccc2cnccc2n1 | P8 | plaque count | - | 0.3 µM |
| Nc1nc(=S)n([C@@H]2O[C@H](CO)[C@@H](O)[C@@H]2O)cc1Cl | AD169 | plaque count | - | >361 µM |
| CCCCCCCCCCCCCCCCCCOCCOP(=O)(O)CO[C@H](CO)Cn1ccc(N)nc1=O | Coffman | plaque count | - | 0.001 µM |
| CC(C)Nc1nc2cc(Cl)c(Cl)cc2n1[C@@H]1CO[C@H](CO)[C@H]1O | AD169 | hybridisation | - | 10 µM |
| Nc1nc2c(ncn2COC(CO)CO)c(=O)[nH]1 | Isolate 2288 UL54 S655L N685S | ELISA | - | 18.25 µM |
| Nc1nc2c(ncn2COC(CO)CO)c(=O)[nH]1 | AD169 | virus yield | - | 0.3 µM |
| O=C(O)/C=C/c1cn([C@@H]2O[C@H](CO)[C@@H](O)[C@@H]2O)c(=S)[nH]c1=O | T-137 | plaque count | - | >213 µM |
| CCCCN1C(=O)c2ccccc2N(C(=O)c2ccc(C)cc2)S1(=O)=O | AD169 | plaque count | - | 2.8 µM |
| Nc1nc2c(ncn2CO[C@@H](CO)CCP(=O)(O)O)c(=O)[nH]1 | AD169 | plaque count | - | 4.2 µM |
| Nc1nc2c(ncn2COC(CO)CCP(=O)([O-])O)c(=O)[nH]1 | AD169 | plaque count | - | 2 µg/mL |
| Nc1nc2c(ncn2COC(CO)CO)c(=O)[nH]1 | Toledo | plaque count | - | 1.3 µM |
| C[C@H]1OC[C@@H](n2c(Br)nc3cc(Cl)c(Cl)cc32)[C@@H]1O | AD169 | hybridisation | - | 11 µM |
| CCCc1cn([C@H]2C[C@H](O)[C@@H](CO)O2)c(=S)nc1N | AD169 | plaque count | - | >277.4 µM |
| O=C(NCCc1ccccc1)C1=Cc2ccncc2CC1 | C8704 | plaque count | - | 5.8 µM |
| OC[C@H]1O[C@@H](n2c(Br)nc3cc(Cl)c(Cl)cc32)[C@H](O)[C@@H]1O | AD169 | hybridisation | - | 0.5 µM |
| Nc1nc2c(ncn2COCC(O)CCP(=O)(O)O)c(=O)[nH]1 | AD169 | plaque count | - | 549 µM |
| Cc1cn([C@H]2C[C@H](O)[C@@H](CO)O2)c(=S)[nH]c1=O | AD169 | plaque count | - | 29.3 µM |
| Nc1nc2c(ncn2C[C@@H]2CC[C@@H](P(=O)(O)O)O2)c(=O)[nH]1 | - | plaque count | - | 0.11 µg/mL |
| CC(=O)c1c(-c2ccc(C#N)cc2)cc2ccccn12 | AD169 | plaque count | - | >100 µM |
| Nc1nc2c(ncn2OCCOCP(=O)(O)O)c(=O)[nH]1 | AD169 | plaque count | - | 0.07 µM |
| Nc1nc2c(ncn2COC[C@@H](O)CO)c(=O)[nH]1 | AD169 | plaque count | - | >25 µg/mL |
| CCOC1=NS(=O)(=O)N(Cc2ccc(Cl)c(Cl)c2)c2ccccc21 | AD169 | plaque count | - | 2.5 µM |
| Nc1nc(=S)n([C@H]2C[C@H](O)[C@@H](CO)O2)cc1Cl | AD169 | plaque count | - | >312 µM |
| CCOP(=O)(O)CCC(CO)OCn1cnc2c(=O)[nH]c(N)nc21 | TOWNE | plaque count | - | 6 µg/mL |
| Nc1nc(=S)n([C@@H]2O[C@H](CO)[C@@H](O)[C@@H]2O)cc1/C=C/c1ccccc1 | 93-1R | plaque count | - | >213 µM |
| Nc1ccn(C[C@@H](CO)OCP(=O)(O)O)c(=O)n1 | 759D100 drug-resistant mutant | plaque count | - | 2 µM |
| Nc1nc(=S)n([C@@H]2O[C@H](CO)[C@@H](O)[C@@H]2O)cc1I | AD169 | plaque count | - | 0.78 µM |
| CCCCCCCCCCCCCCCCOCCCOP(=O)(O)OCC(CO)OCn1cnc2c(=O)[nH]c(N)nc21 | AD169 | plaque count | - | 6.8 µM |
| CC(C)Nc1nc2cc(Cl)c(Cl)cc2n1[C@@H]1CO[C@H](CO)C1 | AD169 | hybridisation | - | 6 µM |
| O[C@@H]1[C@H](O)[C@H](O)CO[C@H]1n1c(Br)nc2cc(Cl)c(Cl)cc21 | 2916RA (L397R) | plaque count | - | 1.7 µM |
| [O-][n+]1onc2ncnc(N3CC[N+]4(CC3)CC[N+]3(CCN(c5ncnc6no[n+]([O-])c56)CC3)CC4)c21 | - | ELISA | - | 12.3 µM |
| O=S1(=O)N=C(OCc2ccc(Cl)cc2)C=CN1Cc1ccc(Cl)cc1 | AD169 | plaque count | - | 12.5 µM |
| Brc1ccc(-c2cc3ccccn3c2)cc1 | AD169 | plaque count | - | >100 µM |
| CC#Cc1cn([C@@H]2O[C@H](CO)[C@@H](O)[C@@H]2O)c(=O)[nH]c1=O | - | plaque count | - | >100 µM |
| O=c1[nH]c(=S)n([C@@H]2O[C@H](CO)[C@@H](O)[C@@H]2O)cc1/C=C/Br | AD169 | plaque count | - | >213 µM |
| COc1ccc2c(c1OC)C=[N+]1CCc3cc4c(cc3C1C2)OCO4 | - | plaque count | - | 0.68 µM |
| Nc1nc2c(ncn2COC(CO)CO)c(=O)[nH]1 | AD169 | plaque count | - | 1.2 µM |
| CCOC1=NS(=O)(=O)N(Cc2ccc(Cl)cc2)c2ccccc21 | AD169 | plaque count | - | 2.8 µM |
| CCOP(=O)(O)CCC(O)CCOCn1cnc2c(=O)[nH]c(N)nc21 | AD169 | plaque count | - | >2000 µM |
| Nc1nc2c(ncn2COCOCP(=O)(O)O)c(=O)[nH]1 | - | cytopathic effect | - | 5 µg/mL |
| Cc1cn([C@H]2C[C@H](O)[C@@H](CO)O2)c(=S)nc1N | 93-1R | plaque count | - | >277.4 µM |
| CCOP(=O)([O-])CCC(CO)OCn1cnc2c(=O)[nH]c(N)nc21 | AD169 | plaque count | - | 2.5 µg/mL |
| CCc1ccc2cc(-c3ccccc3)cn2c1 | AD169 | plaque count | - | 10 µM |
| CCOP(=O)(O)CCCOCn1c(Br)nc2c(=O)[nH]c(N)nc21 | AD169 | plaque count | - | 312 µM |
| Nc1nc2c(ncn2COC(CO)CO)c(=O)[nH]1 | AD169 | plaque count | - | 7 µM |
| CCc1cn([C@@H]2O[C@H](CO)[C@@H](O)[C@@H]2O)c(=S)nc1N | 93-1R | plaque count | - | >264.9 µM |
| COc1cc2oc(-c3ccccc3)cc(=O)c2c(OC)c1OC | TOWNE | plaque count | - | 8 µg/mL |
| CC#Cc1cn([C@@H]2O[C@H](COP(=O)(N[C@@H](C)C(=O)OC)Oc3ccccc3)[C@@H](O)[C@@H]2O)c(=O)[nH]c1=O | AD169 | plaque count | - | >100 µM |
| CCOP(=O)(O)CCC(CO)OCn1cnc2c(=O)[nH]c(N)nc21 | AD169 | plaque count | - | 27 µM |

A second listing of 10 rows from above:

{"compound": "Nc1nc2c(ncn2OCC2COP(=O)(O)CO2)c(=O)[nH]1", "strain or isolate": "AD169", "method": "plaque count", "value": "14 µM"}
{"compound": "O=c1[nH]c(=S)n([C@@H]2O[C@H](CO)[C@@H](O)[C@@H]2O)cc1/C=C/Br", "strain or isolate": "AD169", "method": "plaque count", "value": ">213 µM"}
{"compound": "Nc1nc2c(ncn2COC(CO)CCP(=O)([O-])O)c(=O)[nH]1", "strain or isolate": "AD169", "method": "plaque count", "value": "2 µg/mL"}
{"compound": "Cc1cn([C@H]2C[C@H](O)[C@@H](CO)O2)c(=S)nc1N", "strain or isolate": "93-1R", "method": "plaque count", "value": ">277.4 µM"}
{"compound": "COc1ccc2c(c1OC)C=[N+]1CCc3cc4c(cc3C1C2)OCO4", "method": "plaque count", "value": "0.68 µM"}
{"compound": "CCCc1cn([C@H]2C[C@H](O)[C@@H](CO)O2)c(=S)[nH]c1=O", "strain or isolate": "93-1R", "method": "plaque count", "value": ">277.6 µM"}
{"compound": "Nc1nc(=S)n([C@@H]2O[C@H](CO)[C@@H](O)[C@@H]2O)cc1Cl", "strain or isolate": "AD169", "method": "plaque count", "value": ">361 µM"}
{"compound": "Nc1nc(=S)n([C@@H]2O[C@H](CO)[C@@H](O)[C@@H]2O)cc1F", "strain or isolate": "AD169", "method": "plaque count", "value": ">361 µM"}
{"compound": "Nc1ccn(C[C@@H](CO)OCP(=O)(O)O)c(=O)n1", "strain or isolate": "759D100 drug-resistant mutant", "method": "plaque count", "value": "2 µM"}
{"compound": "O=C1c2sccc2N(Cc2ccc(Cl)c(Cl)c2)S(=O)(=O)N1Cc1ccccc1", "strain or isolate": "AD169", "method": "plaque count", "value": "4 µM"}